Patent publication US20110104179A1, “PROTEASE INHIBITORY PEPTIDES” (priority 2009, published 2011)
Marks after values point to notes of the source that are not given here.

What was measured:
[1] = molecular target: RgpA-Kgp proteinase adhesin complexes (Arg-specific activity) (Porphyromonas gingivalis, UniProt B2RM93); assay: Arg-specific activity of purified RgpA-Kgp proteinase adhesin complexes (BApNA); conditions: for Protease activity (%) of the Arginine-gingipains, W50 Complex: 100 μM peptide; for Arg-specific Activity (%): % of control; for Arg-specific Activity (%) / Arg-specific Activity (Units/mg): purified RgpA-Kgp complexes; for Arg-specific Activity (Units/mg): BApNA
[2] = molecular target: RgpA-Kgp proteinase adhesin complexes (Lys-specific activity) (Porphyromonas gingivalis, UniProt Q51817); assay: Lys-specific activity of purified RgpA-Kgp proteinase adhesin complexes (GPK-NA); conditions: for Lys-specific Activity (%): % of control; for Lys-specific Activity (%) / Lys-specific Activity (Units/mg): purified RgpA-Kgp complexes; for Lys-specific Activity (Units/mg): GPK-NA

Tyr Gln Glu Pro Val Leu Gly Pro Val Arg Gly Pro Phe Pro Ile Ile Val
Protease activity (%) of the Arginine-gingipains, W50 Complex [1]: 21% | Protease activity (%) of the Lysine-gingipains, W50 Complex ([2]; 100 μM peptide): 12%

Thr Glu Ile Pro Thr Ile Asn Thr Ile Ala Ser Gly Glu Pro Thr Ser Thr Pro Thr Thr Glu
Arg-specific Activity (%) ([1]; 50 μM): 46% | Arg-specific Activity (Units/mg) ([1]; 50 μM): 1.95 ± 0.38^a,c Units/mg | Arg-specific Activity (%) ([1]; 100 μM): 10% | Arg-specific Activity (Units/mg) ([1]; 100 μM): 0.41 ± 0.11^a,b Units/mg | Arg-specific Activity (%) ([1]; 200 μM): 8% | Arg-specific Activity (Units/mg) ([1]; 200 μM): 0.33 ± 0.02^a,b Units/mg | Lys-specific Activity (%) ([2]; 50 μM): 29% | Lys-specific Activity (Units/mg) ([2]; 50 μM): 1.34 ± 0.25^a,c Units/mg | Lys-specific Activity (%) ([2]; 100 μM): 21% | Lys-specific Activity (Units/mg) ([2]; 100 μM): 0.98 ± 0.053^a,c Units/mg | Lys-specific Activity (%) ([2]; 200 μM): 9% | Lys-specific Activity (Units/mg) ([2]; 200 μM): 0.41 ± 0.014^a,b Units/mg

Leu Pro Gln Glu Val Leu Asn Glu Asn Leu Leu Arg Phe
Protease activity (%) of the Arginine-gingipains, W50 Complex [1]: 47% | Protease activity (%) of the Lysine-gingipains, W50 Complex ([2]; 200 μM peptide): 52%
